The values that follow come from PubChem BioAssay AID588501 (NMMLSC, 2011).

The list shows a part of the results, in another mix than the full data. Some salts and complexes are drawn in separate pieces, as the source files them; their charges need not balance. Calls of active or inactive are those of the source. No stated cut-off is given here; in the data, active means inhibition above about 30%; inconclusive means no clear call, values can overlap the other calls; inactive means below that.

For the assay, the target named is Lethal factor (Bacillus anthracis) (UniProt P15917). The assay is described as follows: Bacillus anthracis LF protease inhibitors, primary screen, biochemical, multiplex microsphere, MLPCN library (AID 588501). Further: plate controls were buffer without enzyme for full effect and enzyme alone for no effect. Particulars: multiplex microsphere protease cleavage assay, at 10 µM, active compounds read high.
The term inhibition denotes the change of the read-out against control, counted positive when it falls. Consider `CCCCCCCCCCCCCCCC1C[N+](C)(C)CCOP(C)(=O)O1` (stereo not drawn), for which the inhibition was inactive: -7.5%.

Turning to `CP(=O)(Nc1ccc(Cl)cc1Cl)Oc1ccccc1` (stereo not drawn), the inhibition is inactive: 3.5%.

On to `CP(=O)(OCCOc1ccccc1)OCCOc1ccccc1`, for which the inhibition is inactive: -5.2%.

Regarding `COc1ccc(OP(C)(=O)Nc2ccccc2Br)cc1` (stereo not drawn), the inhibition was inactive: -1.4%.

In the case of `COc1ccccc1OP(C)(=O)Nc1ccc(C)c(C)c1` (stereo not drawn), the inhibition was inactive: -0.9%.

Turning to `O=C1C(O)=C([N+](=O)[O-])C(=O)C(O)=C1[N+](=O)[O-]`, the inhibition is inactive: 2.3%.

Turning to `Cc1cc(C)cc(OP(C)(=O)Nc2cccc(C(F)(F)F)c2)c1` (stereo not drawn), the inhibition is inactive: -7.6%.

`CCc1ccc(OP(C)(=O)O)cc1`: the inhibition is inactive: 1.5%.

On to `CP(=O)(Nc1ccccn1)Oc1ccccc1` (stereo not drawn), for which the inhibition is inactive: -4%.

Take `COc1ccccc1OP(C)(=O)Nc1ccc(C)cc1C` (stereo not drawn): the inhibition was inactive: 5.5%.

For the compound `Cc1c(NP(C)(=O)Oc2ccc(C(C)C)cc2)c(=O)n(-c2ccccc2)n1C` (stereo not drawn), the inhibition was inactive: 3.4%.

As for `O=[N+]([O-])c1cc([N+](=O)[O-])c(Nc2ccccn2)c([N+](=O)[O-])c1`, the inhibition was inactive: -1.7%.

Regarding `CN(C)CCOC(=O)C(O)(c1ccccc1)C1CCCC1` (stereo not drawn), the inhibition was inactive: 0.4%.

`COc1ccc(OP(C)(=O)Nc2ccccn2)cc1` (stereo not drawn): the inhibition is inactive: -3.5%.

Take `COc1ccccc1OP(C)(=O)Nc1ccc(Br)cc1` (stereo not drawn): the inhibition is inactive: 2%.

With `CN(C)C(=O)c1c([N+](=O)[O-])cc([N+](=O)[O-])cc1[N+](=O)[O-]`, the inhibition is inactive: -2.1%.

As for `CP(=O)(Nc1ccc(Cl)cc1)Oc1ccc(F)cc1` (stereo not drawn), the inhibition was inactive: -2.2%.

On to `COc1ccccc1OP(C)(=O)Nc1ccccc1Br` (stereo not drawn), for which the inhibition was inactive: -3.7%.

Take `CC(C)(C)c1ccc(OP(C)(=O)O)cc1`: the inhibition is inactive: -4.4%.

For the compound `CP(=O)(Oc1ccccc1)N1CCOC1=O` (stereo not drawn), the inhibition was inactive: 1.5%.

On to `CCc1ccc(OP(C)(=O)Nc2cccnc2)cc1` (stereo not drawn), for which the inhibition is inactive: -6.5%.

On to `COc1ccccc1OP(C)(=O)Nc1c(C)n(C)n(-c2ccccc2)c1=O` (stereo not drawn), for which the inhibition is inactive: 3.5%.

`O=C(OCCCN1CCCC1)C(O)(c1ccccc1)C1CCCCC1` (stereo not drawn): the inhibition is inactive: 2.6%.

Take `CCN(CC)CC(O)COC(=O)C(O)(c1ccccc1)C1CCCCC1` (stereo not drawn): the inhibition was inactive: 3.2%.

As for `COc1ccc(OP(C)(=O)Nc2ccc(Br)cc2)cc1` (stereo not drawn), the inhibition was inactive: 0.1%.

Take `CP(=O)(OC12CC3CC(CC(C3)C1)C2)OC12CC3CC(CC(C3)C1)C2`: the inhibition was inactive: -2.1%.

Take `CCOC(=O)c1ccc(NP(C)(=O)Oc2ccc(Cl)cc2)cc1` (stereo not drawn): the inhibition was inactive: -5.1%.

Regarding `Cc1c(C(c2ccc3c(c2)OCO3)c2c(C)n(C)n(-c3ccccc3)c2=O)c(=O)n(-c2ccccc2)n1C.O=[N+]([O-])c1cc([N+](=O)[O-])c(O)c([N+](=O)[O-])c1`, the inhibition is inactive: -7.8%.

For the compound `O=[N+]([O-])c1cc([N+](=O)[O-])c(NCC2CCS(=O)(=O)C2)c([N+](=O)[O-])c1` (stereo not drawn), the inhibition was inactive: -1%.

As for `Cc1cc(-c2cccc3ccccc23)c(C)cn1.O=[N+]([O-])c1cc([N+](=O)[O-])c(O)c([N+](=O)[O-])c1`, the inhibition was inactive: -9.1%.

Consider `O=[N+]([O-])c1ccc(OP2(=O)COCCO2)cc1` (stereo not drawn), for which the inhibition is inactive: -3.4%.

Turning to `COc1ccc(NP(C)(=O)Oc2ccccc2OC)cc1` (stereo not drawn), the inhibition is inactive: -1.3%.

Take `CN(C)CCOC(=O)C(O)(c1ccccc1)C1CCCCC1` (stereo not drawn): the inhibition was inactive: -4.4%.

In the case of `CN(C)C1(CNC(=O)c2ccc(Cl)c(S(N)(=O)=O)c2)CCCCC1`, the inhibition is inactive: -8.7%.

Regarding `COc1ccc(OP(C)(=O)Nc2cccc(Br)c2)cc1` (stereo not drawn), the inhibition was inactive: -9%.

Turning to `O=[N+]([O-])c1cc([N+](=O)[O-])c(C(F)(F)F)c([N+](=O)[O-])c1O`, the inhibition is inactive: 1%.

For `Cc1ccccc1NP(C)(=O)Nc1ccccc1C`, the inhibition was inactive: 1.5%.

On to `CP(=O)(Nc1ccc2c(c1)OCCO2)Oc1ccccc1` (stereo not drawn), for which the inhibition is inactive: -1.2%.

Regarding `CCOP(C)(=S)SCC(=O)NC(C)(CC)C(=O)O` (stereo not drawn), the inhibition was inactive: -3.4%.

In the case of `CP(=O)(Nc1ccc(SC(F)(F)F)cc1)Oc1ccc(F)cc1` (stereo not drawn), the inhibition is inactive: -7.5%.

On to `COc1ccc2c(c1O)-c1c(O)c(OC)cc3c1[C@H](C2)[N+](C)(C)CC3.O=[N+]([O-])c1cc([N+](=O)[O-])c([O-])c([N+](=O)[O-])c1[O-]`, for which the inhibition was inactive: -4.6%.

Take `O=C(OCCN1CCN(CCOCc2ccccc2)CC1)C(O)(c1ccccc1)c1ccccc1`: the inhibition is inactive: -0.1%.

For `O=C(OC1CN2CCC1CC2)c1ccc([N+](=O)[O-])cc1` (stereo not drawn), the inhibition is inactive: -4%.

In the case of `CC(C)c1ccc(OP(C)(=O)Nc2ccc(SC(F)(F)F)cc2)cc1` (stereo not drawn), the inhibition is inactive: 1.2%.

For `CP(=O)(Nc1ccccc1F)Oc1ccccc1` (stereo not drawn), the inhibition is inactive: -5.1%.

`O=[N+]([O-])c1cc([N+](=O)[O-])c(Nc2ccc(Cl)cc2)c([N+](=O)[O-])c1`: the inhibition was inactive: -3.2%.

Regarding `CCCCCOc1ccc(NP(C)(=O)Oc2ccc(Cl)cc2Cl)cc1` (stereo not drawn), the inhibition was inactive: 18.5%.

Take `O=[N+]([O-])c1cc([N+](=O)[O-])c(OC2CCCCC2O)c([N+](=O)[O-])c1` (stereo not drawn): the inhibition was inactive: 6.3%.

Take `CP(=O)(Nc1ccccc1)Oc1ccc(F)cc1` (stereo not drawn): the inhibition was inactive: -3.7%.

Turning to `CCN(CC)CCCOC(=O)C(O)(c1ccccc1)C1CCCCC1` (stereo not drawn), the inhibition is inactive: -1.8%.

Consider `Cc1c([N+](=O)[O-])cc([N+](=O)[O-])c(Br)c1[N+](=O)[O-]`, for which the inhibition was inactive: -5.1%.

Turning to `COc1ccc(OP(C)(=O)Nc2ccc(SC(F)(F)F)cc2)cc1` (stereo not drawn), the inhibition is inactive: -0.7%.

`CCOC(=O)c1ccc(NP(C)(=O)Oc2ccc(F)cc2)cc1` (stereo not drawn): the inhibition was inactive: -1.8%.

For the compound `CCN(CC)CCCNc1ccccc1[N+](=O)[O-].O=[N+]([O-])c1cc([N+](=O)[O-])c(O)c([N+](=O)[O-])c1`, the inhibition is inactive: -5.7%.

On to `CC1=NCCc2c1[nH]c1ccccc21.O=[N+]([O-])c1cc([N+](=O)[O-])c(O)c([N+](=O)[O-])c1`, for which the inhibition is inactive: 2.7%.

For the compound `O=C(O)c1cccc(Nc2c([N+](=O)[O-])cc([N+](=O)[O-])cc2[N+](=O)[O-])c1`, the inhibition is inactive: 3.3%.

Consider `Cc1cc(C)cc(OP(C)(=O)Nc2ccccn2)c1` (stereo not drawn), for which the inhibition was inactive: 2.5%.

Regarding `CP(=O)(Nc1cccc(Br)c1)Oc1ccccc1` (stereo not drawn), the inhibition was inactive: -6.7%.
